B1: human anti-influenza B virus nucleoprotein monoclonal antibody 23G327 (antibody, V domains shown)
VH: QVQLVQSGAEVKRPGASVKVSCKASGYNLIDFYVNWVRQVPGQGLEWMGYINPDSGGAHYEGKFQGRVIMTRDTSINTAYMELPSLTSDDTAVYFCARGASSGLLTYYYGLDVWGEGTTVIVSS
VL: DIQMTQSPSSLSASIGDRVTITCRASPGINSYLAWYQHKPGKAPKLLIYAASTLQSGVPSRFSGSGSGTDFTLTISSLQPEDVATYYCQKYNSAPWTFGPGTKVEIK
notes: also called 23G327 antibody
B2: human anti-influenza A virus nucleoprotein monoclonal antibody 23G268 (antibody, V domains shown)
VH: QVQLVQSGAVVKKPGDSVKVSCKASGYTFTTYWMHWVRQAPGQGPEWMGIVNPTGGTVMYAKKFQGRVIMTRDTSTTTVFLQLNGLESEDTAIYYCARDLGPARVDFDWLSTFVSWGQGTLVTVSS
VL: DIQMTQSPSSLSASVGDRVIITCRASQGITRHLNWYQQKSGKAPKLLIYDASSLQSGVPSRFSGSGSGADFTLTISSVQPEDFATYYCQQSYSNPPTFGPGTKVDIKR
notes: also called 23G268 antibody
B3: human anti-influenza A virus nucleoprotein monoclonal antibody 23G272 (antibody, V domains shown)
VH: QVQLVQSGAEVKKPGSSVKVSCKATGDTFSSYSISWVRQAPGQGLEWMGRVTPSFGISLYAQKFQGRVTITADRSSSTAYMELNNLTSDDTAVYYCAAGGLVVVVANHWGQGTLVTVSS
VL: EIVLTQSPATLSASVGDRVTITCRASQDITSSLGWYQQRAGEAPKLLLFAASRLESGVPSRFSGSGSGTEYTLTISNLQPEDFATYYCLHYFGSRPWTFGQGTKVEIKR
notes: also called 23G272 antibody
B4: human anti-influenza A virus nucleoprotein monoclonal antibody 23G285 (antibody, V domains shown)
VH: QVQLVQSGGGVVQPGRSLRLSCAASGFTFSRYGMHWVRQAPGKGLEWVAVILYEGINKDYADSVKGRFTISRDNSKNTLYLQMNSLRAEDTAVYYCARDRELRLDYWGQGTLVTVSS
VL: QSVLTQPPSVSGAPGQRVTFSCTGSSSNIGAGYDVNWYQQLPGTAPKVLIYGNTNRPSGVPDRFSASKSGTSASLAITGLQAEDEADYYCQSYDSSLRGYVFGTGTKVSVL
notes: also called 23G285 antibody
B5: human anti-influenza A virus nucleoprotein monoclonal antibody 23G312 (antibody, V domains shown)
VH: QVQLVQSGGGLVQPGRSLRLSCIASGFSFDDYAMHWVRQIPGKGLEWVSGISWNSGARGYADSVKGRFTISRDNAKNSLYLQMNSLRVGDTAFYYCARDMGAGPNDYDTSGNYPLHLYGMDVWGHGTTVTVSS
VL: EIVLTQSPATLSVSPGDRATLSCRASQSVSDKLAWYQQKPGQAPRLLIYGAYTRATGTPARFSGSGSGTEFTLSITGLQAEDFAIYYCHQYNNWPLTFGGGTKVDIK
notes: also called 23G312 antibody
B6: human anti-influenza A virus nucleoprotein monoclonal antibody 23G447 (antibody, V domains shown)
VH: QVQLQESGPGLVKPSQTLSLTCSVSGGSISNPDHYWNWIRQPPGKGLEWIGYIYYTGRTWYSPSLKSRVSLSVDTSKSQFSLNVDSVIAADTAVYYCARSHVWFGELYWGQGALVTVSS
VL: QSVLTQPPSVSAAPGQKVTISCSGRSSNVGDNYVSWYQQFPGTAPKLLIYDNTKRPSGIPDRFSGSKSGTSATLGITGLQTGDEAAYYCATWDSVLSAGVFGGGTKLTVL
notes: also called 23G447 antibody
B7: human anti-influenza A virus nucleoprotein monoclonal antibody 23G494 (antibody, V domains shown)
VH: QVQLVQSGGGLVKPGGSLRLSCAGSGFSFSDYYMTWIRQAPGKGLEWVSSINSGSTVTNYADSVQGRFTISRDKNSVYLQMNSLRTEDTAVYYCARDFGIKAGTSDYWGQGTLVTVSS
VL: DIQMTQSPSSLSASVGDRVTITCRASQTISNFLNWYQQKPGKAPKLLIYAASRLQSWVPSRFTGSGSGTDFALTISSLQPEDFATYYCQQTFSPRITFGPGTKVEMKR
notes: also called 23G494 antibody

biological target: T1, nucleoprotein of influenza virus A/Texas/1/77 (H3N2) (influenza A virus A/Texas/1/77 (H3N2), UniProt P18072 1-498); assay: same-clone sandwich CLIA

Binder | binding result
B1 | no binding (tested: S/N<2.1)

biological target: T1, nucleoprotein of influenza virus …; assay: same-clone sandwich CLIA; remark: another data set of the same source

Binder | binding result
B2 | binds
B3 | binds
B4 | binds
B5 | binds
B6 | binds
B7 | binds
